Structures are written as SMILES.

The conditions of the data set: sputum mixed 1:1 (w/v) with 300 mM tromethamine ± 1197 mM (7%) NaCl, compared to hypertonic or isotonic saline.

Take `NC(CO)(CO)CO` [tromethamine, tris(hydroxymethyl)aminomethane]: the “CF sputum pH” value is listed as “raised the pH of CF sputum”.

(Values after patent US12702649B2, “Method of treating cystic fibrosis airway disease” (priority 2016, dated 2026).)
